From ChEMBL document CHEMBL1681701, “Huprines as a new family of dual acting trypanocidal-antiplasmodial agents” (Bioorg Med Chem, 2011)

Legend:
[1] = Selectivity index, ratio of IC50 for rat L6 cells to IC50 for chloroquine-resistant Plasmodium falciparum K1
[2] = Selectivity index, ratio of IC50 for rat L6 cells to IC 50 for Trypanosoma brucei 427
Trypanosoma brucei = test: Trypanocidal activity against bloodstream form of Trypanosoma brucei 427 after 48 hrs
Plasmodium falciparum = test: Antiplasmodial activity against chloroquine-resistant Plasmodium falciparum K1; assay type: functional, organism-based
Summary of the method: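 K1 parasites grown in human A+ erythrocytes in RPMI 1640 with A+ serum and D-glucose; predominantly early ring-stage cultures used. Twofold serial dilutions run in duplicate from DMSO stocks (final DMSO ≤0.5%), at 2.5% haematocrit and 1% parasitaemia. Incubation was 48 h at 37 °C under 93% N2/3% O2/4% CO2. Growth was read as lactate dehydrogenase activity (APAD/NBT, 550 nm), and IC50 was taken by linear regression.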

CCCCC1=CC2Cc3nc4ccccc4c(N)c3C(C1)C2.Cl (configuration not stated)
Selectivity Index [1]: 1.12
Selectivity Index [2]: 9.6

CCC1=CC2Cc3nc4cc(F)ccc4c(N)c3C(C1)C2 (configuration not stated)
IC50 (Trypanosoma brucei): 4.16 µM

CCCCC1=CC2Cc3nc4ccccc4c(N)c3C(C1)C2 (configuration not stated)
IC50 (Plasmodium falciparum): 5.99 µM
IC50 (Trypanosoma brucei): 0.7 µM

CCC1=CC2Cc3nc4ccc(Cl)cc4c(N)c3C(C1)C2 (configuration not stated)
IC50 (Trypanosoma brucei): 2.15 µM

CCC1=CC2Cc3nc4cccc(F)c4c(N)c3C(C1)C2 (configuration not stated)
IC50 (Trypanosoma brucei): 5.96 µM
